Data from article PMC10770331, “The virulence regulator VirB from Shigella flexneri uses a CTP-dependent switch mechanism to activate gene expression” (Nature Communications, 2024).

Biological target: T1, VirB (Shigella flexneri) (UniProt P0A247)
T1 sequence: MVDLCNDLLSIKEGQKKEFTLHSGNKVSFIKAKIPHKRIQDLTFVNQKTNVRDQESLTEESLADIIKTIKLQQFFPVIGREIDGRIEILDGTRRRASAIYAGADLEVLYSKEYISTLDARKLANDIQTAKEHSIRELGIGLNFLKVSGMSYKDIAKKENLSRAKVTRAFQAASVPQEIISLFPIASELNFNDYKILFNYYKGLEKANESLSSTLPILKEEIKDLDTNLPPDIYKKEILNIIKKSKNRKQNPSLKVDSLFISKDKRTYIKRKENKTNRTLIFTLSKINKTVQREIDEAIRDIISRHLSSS
Assay: BLI
Settings: 5 mM Mg2+, 150 mM NaCl, BLI: 25 mM HEPES/NaOH pH 7.5, 150 mM (low stringency) or 500 mM (high stringency) NaCl, 5 mM MgCl2, 1 mM DTT, 10 uM BSA, 0.01% Tween 20, +/-1 mM nucleotide, recombinant protein, residues 1-309, label: 5' biotin-TEG on both strands

Sequence	binding result (1 mM CTP)	binding result (no nucleotide)
AATATATTCAATTAATAAATTTAGAAACTTGAGCCTGTTAACATAATCAAATTTTCTTTTGCTGTACATAATATGTACCTCGTGAGCATATGTAGTGCTCTGATATGAACTACATCCCACAAGATAAAGTGCCTGATGTATCAGGCTCGGAGTGTTATAGAAAAAGAGAGAACCCTGTTGAATAAGTATCTTTTTTGTTGTAAAACGAGGTACAA (double strand) [closed scrambled virS DNA (215 bp)]	binds	binds
AATATATTCAATTAATAAATTTAGAAACTTGAGCCTGTTAACATAATCAAATTTTCTTTTGCTGTACATAATATGTACCTCGTGAGCATATGTAGTGCTCGTTTCATCATGAAATCCCACAAGATAAAGTGCCTGATGTATCAGGCTCGGAGTGTTATAGAAAAAGAGAGAACCCTGTTGAATAAGTATCTTTTTTGTTGTAAAACGAGGTACAA (double strand) [closed virS DNA (215 bp)]	binds	binds
